This note sets out measurements from patent US6867284B1, “Peptide inhibitors of hepatitis C virus NS3 protease” (Istituto di Ricerche di Biologia Molecolare P. Angeletti …, priority 1998, dated 2005).

Amino acid sequences for entries named in this document (tags omitted). A change or cut given only in a name is not applied to a line headed by its entry. Residues count along the entry.
UniProt P26663, 1027-1208 limits assumed: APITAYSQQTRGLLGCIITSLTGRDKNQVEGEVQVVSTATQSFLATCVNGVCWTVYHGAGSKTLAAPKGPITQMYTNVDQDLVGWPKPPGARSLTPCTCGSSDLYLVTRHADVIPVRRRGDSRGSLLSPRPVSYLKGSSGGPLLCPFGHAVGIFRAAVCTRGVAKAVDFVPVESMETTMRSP

A word on the IC50: it is the concentration needed to halve the response being measured.

In this experiment the target is HCV NS3 protease (Hepatitis C virus genotype 1b, UniProt P26663). The experiment in a line: Inhibition of NS3 protease (HPLC cleavage assay, NS3/4A complex with Pep4AK, substrate peptide 4AB). The class given is biochemical. The settings on record: Table 4 indoline keto acids and related; tested form: trifluoroacetate.

`CC(C)C[C@H](NC(=O)C1(Cc2ccsc2C(=O)O)Cc2ccccc2N1)C(=O)NC(CC(F)F)C(=O)C(=O)O` (stereo partly shown) showed a 50% inhibitory concentration (IC50) of 0.7 µM. In other words, the sub-micromolar range.
